The source of these data is US11053196B2, “Substituted indoline derivatives as dengue viral replication inhibitors” (JANSSEN PHARMACEUTICALS, INC., priority 2017, dated 2021).

The subject of the data set is DENV-2 16681 strain. In words: DENV-2 antiviral assay (eGFP-labeled virus in Vero cells). Particulars: SI=CC50/EC50, DENV-2 antiviral assay. The class given is cell-based, Dengue virus. The protocol:
The antiviral activity of all the compounds of the invention was tested against the DENV-2 16681 strain which was labeled with enhanced green fluorescent protein (eGPF). The culture medium consists of minimal essential medium supplemented with 2% of heat-inactivated fetal calf serum, 0.04% gentamycin (50 mg/mL) and 2 mM of L-glutamine. Vero cells, obtained from ECACC, were suspended in culture medium and 25 μL was added to 384-well plates (2500 cells/well), which already contain the antiviral compounds. Typically, these plates contain a 5-fold serial dilution of 9 dilution steps of the test compound at 200 times the final concentration in 100% DMSO (200 nL). […] Finally, each plate contains wells which are assigned as virus controls (containing cells and virus in the absence of compound), cell controls (containing cells in the absence of virus and compound) and medium controls (containing medium in the absence of cells, virus and compounds). To the wells assigned as medium control, 25 μL of culture medium was added instead of Vero cells. Once the cells are added to the plates, the plates were incubated for 30 minutes at room temperature to allow the cells to distribute evenly within the wells. Next, the plates were incubated in a fully humidified incubator (37° C., 5% CO2) until the next day. Then, DENV-2 strain 16681, labeled with eGFP, was added at a multiplicity of infection (MOI) of 0.5.
Therefore, 15 μL of virus suspension was added to all the wells containing test compound and to the wells assigned as virus control. In parallel, 15 μL of culture medium was added to the medium and cell controls. Next, the plates were incubated for 3 days in a fully humidified incubator (37° C., 5% CO2). At the day of the read out, the eGFP fluorescence was measured using an automated fluorescence microscope at 488 nm (blue laser). Using an in-house LIMS system, inhibition dose response curves for each compound were calculated and the half maximal effective concentration (EC50) was determined. Therefore, the percent inhibition (I) for every test concentration is calculated using the following formula: I=100*(ST−SCC)/(SVC−SCC); ST, SCC and SVC are the amount of eGFP signal in the test compound, cell control and virus control wells, respectively. The EC50 represents the concentration of a compound at which the virus replication is inhibited with 50%, as measured by a 50% reduction of the eGFP fluorescent intensity compared to the virus control. The EC50 is calculated using linear interpolation (Table 1).
Take `COc1cc(NC(C(=O)N2CCc3ccc(OC(F)(F)F)cc32)c2ccc(Cl)cc2OCCO)cc(OCCCC(=O)O)c1` (racemic) [Compound 8, 4-(3-((1-(4-chloro-2-(2-hydroxyethoxy)phenyl)-2-oxo-2-(6-(trifluoromethoxy)indolin-1-yl)ethyl)amino)-5-methoxyphenoxy)butanoic acid]: the SI turned out to be 86800.

On to `COc1cc(NC(C(=O)N2CCc3cc(F)c(C(F)(F)F)cc32)c2ccc(Cl)cc2)cc(OCCCC(=O)O)c1` (racemic) [Compound 3, 4-(3-((1-(4-chlorophenyl)-2-(5-fluoro-6-(trifluoromethyl)indolin-1-yl)-2-oxoethyl)amino)-5-methoxyphenoxy)butanoic acid], for which the SI was 22700.

In turn, `COc1cc(NC(C(=O)N2CCc3ccc(OC(F)(F)F)cc32)c2ccc(Cl)cc2)cc(OCCCC(=O)O)c1` (single isomer, unassigned) [Compound 7A-D, 4-(3-((1-(4-chlorophenyl)-1-deuterio-2-oxo-2-(6-(trifluoromethoxy)indolin-1-yl)ethyl)amino)-5-methoxyphenoxy)butanoic acid] returned an SI of 118813.

`COc1cc(NC(C(=O)N2CCc3c(C)cc(C(F)(F)F)cc32)c2ccc(Cl)cc2)cc(OCCCC(=O)O)c1` (racemic) [Compound 2, 4-(3-((1-(4-chlorophenyl)-2-(4-methyl-6-(trifluoromethyl)indolin-1-yl)-2-oxoethyl)amino)-5-methoxyphenoxy)butanoic acid]: the SI is 32100.

Take `COc1cc(NC(C(=O)N2CCc3sc(C(F)(F)F)cc32)c2ccc(Cl)cc2)cc(OCCCC(=O)O)c1` (racemic) [Compound 10, 4-(3-((1-(4-chlorophenyl)-2-oxo-2-(2-(trifluoromethyl)-5,6-dihydro-4H-thieno[3,2-b]pyrrol-4-yl)ethyl)amino)-5-methoxyphenoxy)butanoic acid]: the SI was 40900.

As for `COc1cc(NC(C(=O)N2CCc3cc(F)c(OC(F)(F)F)cc32)c2ccc(Cl)cc2)cc(OCCCC(=O)O)c1` (racemic) [Compound 5, 4-(3-((1-(4-chlorophenyl)-2-(5-fluoro-6-(trifluoromethoxy)indolin-1-yl)-2-oxoethyl)amino)-5-methoxyphenoxy)butanoic acid], the SI is listed as 90900.

`COc1cc(NC(C(=O)N2CCc3ccc(OC(F)(F)F)cc32)c2ccc(Cl)cc2)cc(OCCCC(=O)O)c1` (single isomer, unassigned) [Compound 7B-D, 4-(3-((1-(4-chlorophenyl)-1-deuterio-2-oxo-2-(6-(trifluoromethoxy)indolin-1-yl)ethyl)amino)-5-methoxyphenoxy)butanoic acid] yielded an SI of 584.

In turn, `COc1cc(NC(C(=O)N2CCc3ccc(SC(F)(F)F)cc32)c2ccc(Cl)cc2)cc(OCCCC(=O)O)c1` (racemic) [Compound 11, 4-(3-((1-(4-chlorophenyl)-2-oxo-2-(6-((trifluoromethyl)thio)indolin-1-yl)ethyl)amino)-5-methoxyphenoxy)butanoic acid] returned an SI of 43300.

Regarding `COc1cc(NC(C(=O)N2CCc3nc(OC)c(C(F)(F)F)cc32)c2ccc(Cl)cc2)cc(OCCCC(=O)O)c1` (racemic) [Compound 9, 4-(3-((1-(4-chlorophenyl)-2-(5-methoxy-6-(trifluoromethyl)-2,3-dihydro-1H-pyrrolo[3,2-b]pyridin-1-yl)-2-oxoethyl)amino)-5-methoxyphenoxy)butanoic acid], the SI is given as 12600.

With `COc1cc(NC(C(=O)N2CCc3ccc(OC(F)(F)F)cc32)c2ccc(F)cc2OC)cc(OCCCC(=O)O)c1` (racemic) [Compound 6, 4-(3-((1-(4-fluoro-2-methoxyphenyl)-2-oxo-2-(6-(trifluoromethoxy)indolin-1-yl)ethyl)amino)-5-methoxyphenoxy)butanoic acid], the SI came out at 19500.

For the compound `COc1cc(NC(C(=O)N2CCc3ccc(S(F)(F)(F)(F)F)cc32)c2ccc(Cl)cc2)cc(OCCCC(=O)O)c1` (racemic) [Compound 1, 4-(3-((1-(4-chlorophenyl)-2-oxo-2-(6-(pentafluoro-λ^6-sulfanyl)indolin-1-yl)ethyl)amino)-5-methoxyphenoxy)butanoic acid], the SI came to 19800.

As to `COc1cc(NC(C(=O)N2CCc3c(C)cc(OC(F)(F)F)cc32)c2ccc(Cl)cc2)cc(OCCCC(=O)O)c1` (racemic) [Compound 4, 4-(3-((1-(4-chlorophenyl)-2-(4-methyl-6-(trifluoromethoxy)indolin-1-yl)-2-oxoethyl)amino)-5-methoxyphenoxy)butanoic acid], the SI stood at 96000.
